{"source": "patent US20250163122A1", "about": "“COMPOSITIONS AND METHODS FOR TREATING AIRWAY MUCUS DYSFUNCTION” (BOARD OF REGENTS, THE UNIVERSITY OF TEXAS SYSTEM, priority 2022, published 2025)", "key": {"CALU-3 cells": {"tested_on": "CALU-3 cells", "experiment": "Uptake of PEN-SP9-Cy3 in CALU-3 cells with endocytosis inhibitors", "assay_type": "cell-based"}, "mouse airway epithelium": {"tested_on": "mouse airway epithelium", "experiment": "Peptide uptake in mouse airway epithelium after aerosol delivery", "assay_type": "in vivo", "conditions": "30 min after aerosolized 20 μM, left axial bronchus"}}}
{"substance": "H2N-RQIKIWFQNRRMKWKKEE(S5)KDA(S5)IR(S5)LVM(S5)DEQ-(C/Cy3Mal)-amide (IRQIKIWFQNRRMKWKKEEAKDAAIRALVMADEQ; S5 staples, penetratin, Cys-Cy3 maleimide, C-terminal amide; MOD_RES 20 S-pentenylalanine; MOD_RES 24 S-pentenylalanine; MOD_RES 27 S-pentenylalanine; MOD_RES 31 S-pentenylalanine; CROSSLNK 20..24 Macrocyclic crosslink is formed by substituting the non-natural amino acids S-pentenylalanine; CROSSLNK 27..31 Macrocyclic crosslink is formed by substituting the non-natural amino acids S-pentenylalanine) [PEN-SP9-Cy3]", "values": [{"measurement": "cytoplasmic delivery (Cy3 mean fluorescence intensity) with dynasore", "setting": "CALU-3 cells; 100 μM PEN-SP9-Cy3, 80 μM dynasore", "value": "inhibited"}, {"measurement": "cytoplasmic delivery (Cy3 mean fluorescence intensity) with chloroquine", "setting": "CALU-3 cells; 100 μM PEN-SP9-Cy3, 100 μM chloroquine", "value": "inhibited"}, {"measurement": "uptake by secretory cells (CCSP staining)", "setting": "mouse airway epithelium", "value": "not take up"}]}
